Experimental data: PubChem BioAssay AID1259414 (Drosophila RNAi Screening Center, 2018)

- Assay: 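Fly genes that alter Wolbachia amount inside host cells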 (primary screen)
- Cell system: Drosophila JW18 cells infected with Wolbachia
- Reagents: long dsRNA against Drosophila genes, 0.25 µg dsRNA per well of a 384-well plate
- Duration: 5 days
- Challenge: cells persistently infected with Wolbachia before knock-down; no added drug
- Detection: 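Automated imaging of bacterial rRNA staining divided by host cell count, reported as plate-normalised robust z-score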
- Direction: Wolbachia per cell robust z: higher = more Wolbachia per host cell than the plate typical
- Rule for the call: 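Active if absolute robust z reaches 1.5 in two or more of three replicates, leaving out multi- or no-target dsRNAs, genes unexpressed in JW18 and A1 wells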
In all, the deposit lists about 24,000 reagents; below is an unselected part of those that have a named target and a result. In the full data, about 1,210 (5%) were called active. 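Inactive calls also include excluded dsRNAs with several or no targets, genes unexpressed in JW18, and well A1, regardless of score.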 Names joined by + are all predicted targets of the reagent.

gene | DRSC id | Wolbachia per cell robust z, rep 1 | Wolbachia per cell robust z, rep 2 | Wolbachia per cell robust z, rep 3 | Call
CG14937 (GeneID 34591) | DRSC02419 | 0.429 | 0.511 | 0.221 | inactive
Naa30B (GeneID 317976) | DRSC08245 | 0.086 | 0.526 | -0.142 | inactive
twi (GeneID 37655) | DRSC23185 | 0.778 | -5.18 | 0.358 | inactive
twi (GeneID 37655) | DRSC26056 | 0.677 | -0.829 | 0.983 | inactive
wdb (GeneID 43312) | DRSC14163 | 0.479 | 0.663 | 0.712 | inactive
CG42588 (GeneID 39457) | DRSC09820 | -0.477 | -1.52 | -0.716 | inactive
CG42588 (GeneID 39457) | DRSC22121 | -0.137 | 1.2 | 0.206 | inactive
CG42588 (GeneID 39457) | DRSC26914 | -0.397 | -0.922 | 0.124 | inactive
CG42588 (GeneID 39457) | DRSC37828 | -0.119 | -2.05 | 0.0141 | inactive
COX5A (GeneID 41432) | DRSC16611 | 0.988 | 1.15 | 0.959 | inactive
Nnf1a (GeneID 37325) | DRSC06394 | 0.167 | -0.292 | -0.254 | inactive
Art1 (GeneID 41295) | DRSC16063 | -1.3 | -0.74 | -0.521 | inactive
RpS3A (GeneID 43768) | DRSC17168 | 2 | 0.532 | 0.956 | inactive
CG30271 (GeneID 246518) | DRSC04170 | 0.219 | 0.497 | 0.73 | inactive
CG30271 (GeneID 246518) | DRSC30044 | -0.579 | 0.458 | -8.06 | inactive
Fhos (GeneID 39004) | DRSC08943 | 0.586 | 1.39 | 0.866 | inactive
Fhos (GeneID 39004) | DRSC10545 | 0.224 | -0.168 | -0.0902 | inactive
Fhos (GeneID 39004) | DRSC10546 | -7.81 | -1.57 | -1.77 | active
Fhos (GeneID 39004) | DRSC10547 | -0.551 | -0.306 | 0.136 | inactive
Fhos (GeneID 39004) | DRSC28627 | 0.461 | -0.799 | -0.32 | inactive
Jwa (GeneID 35128) | DRSC02048 | 0.219 | -0.236 | -0.179 | inactive
Jwa (GeneID 35128) | DRSC26655 | 0.11 | -0.354 | 0.782 | inactive
CG4830 (GeneID 41477) | DRSC15657 | 0.609 | -0.445 | 0.931 | inactive
Gr22d (GeneID 14462661) | DRSC21653 | 1.35 | -0.334 | 1.43 | inactive
Gr22d (GeneID 14462661) | DRSC25985 | -0.517 | 0.235 | -1.59 | inactive
CG3513 (GeneID 33590) | DRSC00608 | -5.44 | 0.699 | -1.57 | inactive
CG8064 (GeneID 42196) | DRSC16373 | 1.67 | -0.929 | -3.62 | inactive
CG9928 (GeneID 34704) | DRSC03274 | -4.43 | -0.274 | -0.123 | inactive
ArgRS-m (GeneID 40929) | DRSC14186 | -0.125 | 0.184 | -0.379 | inactive
Pif1A (GeneID 8674049) | DRSC14383 | 0.121 | -3.4 | 1.44 | inactive
Nse1 (GeneID 33938) | DRSC02147 | -0.879 | -2.39 | 0.387 | inactive
CG42826 (GeneID 10178905) | DRSC10682 | 0.294 | -3.46 | -0.528 | inactive
Dbp73D (GeneID 39871) | DRSC11142 | -0.113 | -1.13 | -2.32 | inactive
CG30472 (GeneID 246634) | DRSC22245 | -0.104 | 1.03 | 0.816 | inactive
CG30472 (GeneID 246634) | DRSC26789 | 0.554 | 0.0331 | -0.715 | inactive
CG32225 (GeneID 317926) | DRSC09657 | -0.444 | 0.923 | 0.678 | inactive
CG32225 (GeneID 317926) | DRSC26362 | -0.215 | -1.04 | -0.0422 | inactive
Gr64e + Gr64d | DRSC28375 | -0.163 | -1.86 | -0.826 | inactive
CG34155 (GeneID 4379867) | DRSC13991 | 0.225 | -1.38 | 1.04 | inactive

Continued (4 carried over from the part before).
gene | DRSC id | Wolbachia per cell robust z, rep 1 | Wolbachia per cell robust z, rep 2 | Wolbachia per cell robust z, rep 3 | Call
CG32225 (GeneID 317926) | DRSC09657 | -0.444 | 0.923 | 0.678 | inactive
CG32225 (GeneID 317926) | DRSC26362 | -0.215 | -1.04 | -0.0422 | inactive
Gr64e + Gr64d | DRSC28375 | -0.163 | -1.86 | -0.826 | inactive
CG34155 (GeneID 4379867) | DRSC13991 | 0.225 | -1.38 | 1.04 | inactive
CG11294 (GeneID 31807) | DRSC17777 | -0.158 | 1.31 | -0.157 | inactive
CG11294 (GeneID 31807) | DRSC25060 | 0.346 | -0.875 | 0.552 | inactive
CG14963 (GeneID 38383) | DRSC08422 | -0.272 | 0.733 | -0.452 | inactive
CG14423 (GeneID 31287) | DRSC17920 | -0.0613 | -0.349 | 0.709 | inactive
CG14423 (GeneID 31287) | DRSC23857 | 1.27 | 0.706 | 0.931 | inactive
Ppn (GeneID 43872) | DRSC15328 | -4.8 | 0.633 | -3.69 | active
Ppn (GeneID 43872) | DRSC27718 | -0.915 | 0.195 | 0.638 | inactive
Nab2 (GeneID 42897) | DRSC14158 | 0.349 | 0.784 | 0.334 | inactive
Nab2 (GeneID 42897) | DRSC27135 | 0.598 | -0.0963 | -2.87 | inactive
Osi4 (GeneID 40758) | DRSC12134 | 0.184 | 0.298 | 0.275 | inactive
CG33932 + Rpp20 | DRSC19467 | -0.402 | -2.99 | -0.906 | inactive
CG17597 (GeneID 35140) | DRSC02630 | 1.24 | 0.551 | -1.19 | inactive
CG17597 (GeneID 35140) | DRSC24788 | -2.13 | -0.463 | -1.87 | active
Ada1-2 + Ada1-1 | DRSC01220 | -1.44 | -1.54 | -1.55 | inactive
Ada1-2 + Ada1-1 | DRSC01222 | -4.17 | -2.28 | -2.76 | inactive
Ada1-2 + Ada1-1 | DRSC28646 | 0.532 | 0.181 | -0.208 | inactive
CG10265 (GeneID 36676) | DRSC05986 | -2.06 | -1.62 | -0.453 | active
CG10265 (GeneID 36676) | DRSC21680 | 0.52 | 0.195 | -0.584 | inactive
SMC3 (GeneID 32627) | DRSC20227 | -2.6 | -0.222 | -3.86 | active
CG12321 (GeneID 42174) | DRSC14499 | -2.86 | -5.52 | -1.74 | inactive
CG12321 (GeneID 42174) | DRSC28965 | 0.199 | 1.1 | 1 | inactive
CG42458 (GeneID 2768945) | DRSC23129 | -2.59 | -0.125 | -0.255 | inactive
CG42458 (GeneID 2768945) | DRSC23261 | 0.746 | 0.466 | 0.419 | inactive
CG42458 (GeneID 2768945) | DRSC26691 | 0.875 | 0.514 | 1.25 | inactive
CG42458 (GeneID 2768945) | DRSC29831 | -0.155 | -0.398 | -5.05 | inactive
CG15650 (GeneID 37373) | DRSC04241 | 0.85 | 1.01 | -1.22 | inactive
CG15531 (GeneID 43592) | DRSC15068 | -2.46 | 0.225 | -0.0359 | inactive
CG15531 (GeneID 43592) | DRSC24882 | -0.676 | 0.546 | 0.247 | inactive
CG15531 (GeneID 43592) | DRSC39079 | -0.545 | 0.22 | 0.0982 | inactive
